Pooled drug test results. Numbers come from NIAID ChemDB, via PubChem.

All rows: growth or infection tests; species: HIV-1; measure: inhibition

An empty or dashed field is not shown. Neighbouring rows are from separate reports. Percent inhibition refers to the dose given; in toxicity tests it is the harm to the cells.

SMILES	strain or isolate	changes	cells	method	setting	tested at	value
C[N+]1(C)[C@H](CC(=O)[O-])C[C@@H](O)[C@@H]1CO	-	-	293T	-	pseudotyped	10 µM	2.5%
O=c1c(-c2nnc(-c3ccc(Cl)cc3)s2)cnc2ccccn12	NL4-3	-	HeLa	single cycle	-	100 µM	39%
C=C(C)[C@@H]1CC[C@]2(C(=O)O)CC[C@]3(C)C(CCC4[C@@]5(C)CC[C@H](OC(=O)CN(OC)C6O[C@H](CO)[C@@H](O)[C@H](O)[C@H]6O)C(C)(C)C5CC[C@]43C)C12	IIIB	-	-	cytopathic effect	-	10 µM	2%
Nc1nc(Cl)c2nnn([C@@H]3C[C@H](CO)[C@H](O)[C@@H]3O)c2n1	-	-	CEM-V/MT-2 + CEM	cytopathic effect	-	125 µg/mL	0%
C=C(C)[C@@H]1CC[C@]2(C(=O)O)CC[C@]3(C)C(CCC4[C@@]5(C)CC[C@H](OC(=O)CN(OC)[C@H]6O[C@@H](CO)[C@H](O)[C@H](O)[C@@H]6O)C(C)(C)C5CC[C@]43C)C12	IIIB	-	-	cytopathic effect	-	10 µM	28%
O=P(O)(O)OP(=O)(O)OP(=O)(O)OP(=O)(O)O	IIIB	-	H9	p24	-	100 µg/mL	21%
C=C(C)[C@@H]1CC[C@]2(C(=O)O)CC[C@]3(C)C(CCC4[C@@]5(C)CC[C@H](OC(=O)CN(OC)C6O[C@@H](C)[C@@H](O)[C@@H](O)[C@@H]6O)C(C)(C)C5CC[C@]43C)C12	IIIB	-	-	cytopathic effect	-	10 µM	61%
Cc1cn([C@H]2C[C@H](N=[N+]=[N-])[C@@H](CO)O2)c(=O)[nH]c1=O	IIIB	-	Macrophage + Monocytes/macrophages	p24	-	10 µg/mL	95%
CCCCCCCCCCCCCCCCOP(=O)(OC[C@H]1OC(O)[C@@H](O)[C@@H](O)[C@@H]1O)OC[C@H]1O[C@@H](n2cc(C)c(=O)[nH]c2=O)C[C@@H]1N=[N+]=[N-]	LAV-Bru	-	CEM	RT activity	26 d	1 µM	0%
CCOc1ccc(Br)cc1-c1oc2ccccc2c(=O)c1O	BaL	-	PM1	p24 / ELISA	-	5 µM	0%
CC1=C(C(=O)O)C(c2ccccc2Cl)NC(=O)N1	-	-	HEK293T	p24 / ELISA	-	100 µM	40.2%
O=c1c(-c2nnc(-c3ccc(Cl)cc3)o2)cnc2ccccn12	NL4-3	-	HeLa	single cycle	-	100 µM	26%
C=C(C)[C@@H]1CC[C@]2(C(=O)NCCCCCCCC(=O)N[C@@H](CC(C)C)[C@@H](O)CC(=O)O)CC[C@]3(C)[C@H](CC[C@@H]4[C@@]5(C)CC[C@H](O)C(C)(C)[C@@H]5CC[C@]43C)[C@@H]12	LAI	I84S	HeLa P4 + HeLa	syncytia	-	10 µM	22%
Nc1ncnc2c1ncn2COCCOP(=O)([O-])O[C@@H]1C[C@@H](COP(=O)([O-])O[C@@H]2C[C@@H](COP(=O)([O-])O[C@@H]3C[C@@H](CO)O[C@H]3n3cnc4c(N)[n+](Cc5ccccc5)cnc43)O[C@H]2n2cnc3c(N)ncnc32)O[C@H]1n1cnc2c(N)ncnc21	-	-	SupT1 + Sup-T1	syncytia	-	0.1 µM	29%
Nc1nc(N)c2ncn([C@@H]3C[C@H](CO)[C@@H](O)[C@@H]3O)c2n1	-	-	CEM-V/MT-2 + CEM	cytopathic effect	-	125 µg/mL	0%
Cc1cn([C@H]2C[C@H](N=[N+]=[N-])[C@@H](COP(=O)(O)OCCO[C@H]3O[C@H](CO)[C@@H](O)[C@H](O)[C@@H]3O)O2)c(=O)[nH]c1=O	LAV-Bru	-	U-937	RT activity	7 d	1 µM	0%
CC1=C(C(=O)O)C(c2cccc(N)c2)NC(=O)N1	-	-	HEK293T	p24 / ELISA	-	100 µM	41.2%
C=C(C)[C@@H]1CC[C@]2(C(=O)O)CC[C@]3(C)C(CCC4[C@@]5(C)CC[C@H](OC(=O)CN(OC)C6O[C@@H](C)[C@H](O)[C@@H](O)[C@H]6O)C(C)(C)C5CC[C@]43C)C12	IIIB	-	-	cytopathic effect	-	10 µM	14%
CC(=O)C1=CC=CN(C(=O)c2ccccc2)C1C#N	IIIB	-	MOLT-3	syncytia	-	50 µM	0%
CCCCn1c(C)c(C(=O)OC)c(C(=O)OC)c1-c1ccccc1	IIIB	-	PBL	p24 / ELISA	-	1 µM	0%
COc1ccnc2[nH]cc(C(=O)C(=O)N3CCN(C(=O)c4ccccc4)C[C@H]3C)c12	NL4-3	-	HEK293T + MT-2	p24 / ELISA	-	100 µM	100%
COc1c(C)c2c(c(O)c1C/C=C(\C)CCC(=O)O)C(=O)OC2	SF162	-	HUT78/HIV-1(SF162) + HUT 78	RT activity	chronic infection	10 µM	0%
COC(=O)c1c[nH]c(Cc2ccccc2)c1C(=O)OC	IIIB	-	PBL	p24 / ELISA	-	10 µM	3%
CC1=C(C(=O)OCc2ccccc2)C(c2ccc(N(C)C)cc2)NC(=O)N1	-	-	HEK293T	p24 / ELISA	-	100 µM	5.7%
CC(=O)C1=CN(C(=O)OC(C)C)C=CC1C#N	IIIB	-	MOLT-3	syncytia	-	50 µM	0%
Nc1nc(N)c2nnn([C@@H]3C[C@H](CO)[C@H](O)[C@@H]3O)c2n1	-	-	CEM-V/MT-2 + CEM	cytopathic effect	-	62.5 µg/mL	0%
C[C@@H](O)CCCCn1c(=O)c2c(ncn2C)n(C)c1=O	LAV	-	U1(HIV-1 (LAV)) + U1	p24	-	200 µM	55%
C=C(C)[C@@H]1CC[C@]2(C(=O)O)CC[C@]3(C)C(CCC4[C@@]5(C)CC[C@H](OC(=O)CN(OC)C6O[C@H](CO)[C@@H](O)C[C@H]6O)C(C)(C)C5CC[C@]43C)C12	IIIB	-	-	cytopathic effect	-	10 µM	31%
COC(=O)c1c(C(=O)OC)c(-c2ccccc2)n(-c2ccccc2)c1C	IIIB	-	PBL	p24 / ELISA	-	10 µM	6%
C=C(C)[C@@H]1CC[C@]2(C(=O)O)CC[C@]3(C)C(CCC4[C@@]5(C)CC[C@H](OC(=O)CN(OC)C6OC[C@H](O)[C@H](O)[C@@H]6O)C(C)(C)C5CC[C@]43C)C12	IIIB	-	-	cytopathic effect	-	10 µM	20%
Nc1ncnc2c1ncn2[C@@H]1O[C@H](COP(=O)(O)O[C@@H]2[C@H](O)[C@@H](COP(=O)(O)O[C@@H]3[C@H](O)[C@@H](CO)O[C@H]3n3cnc4c(N)ncnc43)O[C@H]2n2cnc3c(N)ncnc32)[C@@H](O)[C@H]1O	-	-	SupT1 + Sup-T1	syncytia	-	300 µM	67%
COC(=O)C1=C(C)N(c2ccc(C(=O)O)cc2)C(C)=C(C(=O)OC)C1c1ccccc1	NL4-3	-	HEK293T + MT-2	p24 / ELISA	-	100 µM	27%
CCCCCCCCCCCCCCCCOP(=O)(OCCO[C@@H]1O[C@H](CO)[C@@H](O)[C@H](O)[C@@H]1O)OC[C@H]1O[C@@H](n2cc(C)c(=O)[nH]c2=O)C[C@@H]1N=[N+]=[N-]	LAV-Bru	-	U-937	RT activity	7 d	1 µM	0%
CC(=O)N1c2ccc3ccccc3c2C=CC1C#N	IIIB	-	MOLT-3	syncytia	-	50 µM	0%
C=C(C)[C@@H]1CC[C@]2(C(=O)O)CC[C@]3(C)C(CCC4[C@@]5(C)CC[C@H](OC(=O)CN(OC)C6O[C@H](C(=O)O)[C@H](O)[C@H](O)[C@H]6O)C(C)(C)C5CC[C@]43C)C12	IIIB	-	-	cytopathic effect	-	10 µM	1%
Nc1ncnc2c1ncn2COCCOP(=O)(O)O[C@@H]1C[C@@H](COP(=O)(O)O[C@@H]2C[C@@H](COP(=O)(O)O[C@@H]3C[C@@H](CO)O[C@H]3n3cnc4c(NCc5ccccc5)ncnc43)O[C@H]2n2cnc3c(N)ncnc32)O[C@H]1n1cnc2c(N)ncnc21	-	-	SupT1 + Sup-T1	syncytia	-	1 µM	41%
C=CCOC(=O)N1c2ccc3ccccc3c2C=CC1C#N	IIIB	-	MOLT-3	syncytia	-	50 µM	0%
O=c1c(-c2nnc(-c3ccccc3)s2)cnc2ccccn12	NL4-3	-	HeLa	single cycle	-	100 µM	33%
Cc1ccc(-c2ccc3c(c2)C=C(C(=O)Nc2ccc(C[N+](C)(C)C4CCOCC4)cc2)CCC3)cc1	COT1 CLADE C	-	PBMC	p24	-	1 µM	100%
CC1=C(C(=O)O)C(c2ccc(N(C)C)cc2)NC(=O)N1	-	-	HEK293T	p24 / ELISA	-	100 µM	35.1%
CCn1c(C)c(C(=O)OC)c(C(=O)OC)c1Cc1ccccc1	IIIB	-	PBL	p24 / ELISA	-	10 µM	100%
CCCCCCCCCCCCCCCCOCC(COC(=O)CCC(=O)OC1CC(COP(=O)(O)OC2CC(COP(=O)(O)OC3CC(CO)OC3n3cnc4c(N)ncnc43)OC2n2cnc3c(N)ncnc32)OC1n1cnc2c(N)ncnc21)OCCCCCCCCCCCCCCCC	IIIB	-	SupT1 + Sup-T1	syncytia	-	300 µM	93.3%
CN1C(=O)N(C)C(=O)C2(C1=O)[C@@H](c1ccco1)CC(=O)C[C@H]2[C@H]1COC(C)(C)O1	NL4-3	-	SupT1	MTT	-	10 µM	56%
Cc1c(C)c2c(c(C)c1OC(=O)CCC(=O)OC1CC(COP(=O)(O)OC3CC(COP(=O)(O)OC4CC(CO)OC4n4cnc5c(N)ncnc54)OC3n3cnc4c(N)ncnc43)OC1n1cnc3c(N)ncnc31)CCC(C)(CCCC(C)CCCC(C)CCCC(C)C)O2	IIIB	-	SupT1 + Sup-T1	syncytia	-	300 µM	95%
NCCSSCCN	IIIB	-	PBL	p24	-	200 µM	100%
CCCCCCCCCCCCCCCCOCC(COC(=O)CCC(=O)OCC1CC(OP(=O)(O)OCC2CC(OP(=O)(O)OCC3CC(O)C(n4cnc5c(N)ncnc54)O3)C(n3cnc4c(N)ncnc43)O2)C(n2cnc3c(N)ncnc32)O1)OCCCCCCCCCCCCCCCC	IIIB	-	SupT1 + Sup-T1	syncytia	-	300 µM	96.7%
CCOC(=O)C1=C(C)N(c2ccc(C(=O)O)cc2)C(C)=C(C(=O)OCC)C1c1ccco1	NL4-3	-	HEK293T + MT-2	p24 / ELISA	-	100 µM	80.5%
NC(=O)NO	-	-	U-937	RT activity	-	200 µM	67.77%
COC(=O)c1cn2c(ccc3ccccc32)c1C(=O)OC	IIIB	-	PBL	p24 / ELISA	-	10 µM	5%
C=C1CC[C@@H](OC(=O)CCC(=O)OC2CC(COP(=O)(O)OC3CC(COP(=O)(O)OC4CC(CO)OC4n4cnc5c(N)ncnc54)OC3n3cnc4c(N)ncnc43)OC2n2cnc3c(N)ncnc32)C/C1=C/C=C1\CCC[C@]2(C)[C@@H]([C@@H](C)/C=C/[C@H](C)C(C)C)CC[C@@H]12	IIIB	-	SupT1 + Sup-T1	syncytia	-	300 µM	91.7%

Again, the opening 6 rows:

SMILES	strain or isolate	changes	cells	method	setting	tested at	value
C[N+]1(C)[C@H](CC(=O)[O-])C[C@@H](O)[C@@H]1CO	-	-	293T	-	pseudotyped	10 µM	2.5%
O=c1c(-c2nnc(-c3ccc(Cl)cc3)s2)cnc2ccccn12	NL4-3	-	HeLa	single cycle	-	100 µM	39%
C=C(C)[C@@H]1CC[C@]2(C(=O)O)CC[C@]3(C)C(CCC4[C@@]5(C)CC[C@H](OC(=O)CN(OC)C6O[C@H](CO)[C@@H](O)[C@H](O)[C@H]6O)C(C)(C)C5CC[C@]43C)C12	IIIB	-	-	cytopathic effect	-	10 µM	2%
Nc1nc(Cl)c2nnn([C@@H]3C[C@H](CO)[C@H](O)[C@@H]3O)c2n1	-	-	CEM-V/MT-2 + CEM	cytopathic effect	-	125 µg/mL	0%
C=C(C)[C@@H]1CC[C@]2(C(=O)O)CC[C@]3(C)C(CCC4[C@@]5(C)CC[C@H](OC(=O)CN(OC)[C@H]6O[C@@H](CO)[C@H](O)[C@H](O)[C@@H]6O)C(C)(C)C5CC[C@]43C)C12	IIIB	-	-	cytopathic effect	-	10 µM	28%
O=P(O)(O)OP(=O)(O)OP(=O)(O)OP(=O)(O)O	IIIB	-	H9	p24	-	100 µg/mL	21%